Legend:
Test in all cases: SEC-MALS
[1] = biological target: purified Q61Y N1 (C-terminal His tag), vaccinia virus (UniProt P17361)
[2] = biological target: purified R58Y N1 (C-terminal His tag), vaccinia virus (UniProt P17361)
[3] = biological target: purified R71Y N1 (C-terminal His tag), vaccinia virus (UniProt P17361)

“purified Q61Y N1 (C-terminal His tag) Q61Y | C40S” was tested, and the stoichiometry N [1] was 2.
“purified R58Y N1 (C-terminal His tag) R58Y | C40S” showed a stoichiometry N [2] of 2.
“purified R71Y N1 (C-terminal His tag) R71Y | C40S” was tested, and the stoichiometry N [3] was 2.

Reference: paper PMC3240604, “Inhibition of Apoptosis and NF-κB Activation by Vaccinia Protein N1 Occur via Distinct Binding Surfaces and Make Different Contributions to Virulence” (2011)
